PubChem BioAssay AID504761 | Drosophila RNAi Screening Center | 2011
In all, the deposit lists about 22,000 reagents; this is a random part of those with a known target gene and a result. In the full data, 116 (0.52%) were called active. 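Calls depend on retest data that are not deposited; infection was ranked per plate without normalising between plates; the unit of the infection score is not given.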 Raw values are not corrected between plates. Unmarked entries are inactive. A plus sign joins genes that one reagent is predicted to hit. Reagent sequences are not shown. Not given: the amount of reagent, the time to read-out.

Purpose: 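Insect host genes that dengue virus relies on to spread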 (primary screen)
System: D.Mel-2 cells from Drosophila
Reagent: long dsRNA against Drosophila genes
Conditions: infection with dengue virus type 2; dose and infection time not stated
Read-out: 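Per well on two replicate plates, imaging gave the percent of cells positive for viral envelope protein, ranked by infection, and a nuclear count of cells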
Scale: infection score: higher = more virus-infected cells; cell count: higher = more cells in the well
Rule for the call: 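Low infection ranks in the two replicates (chance level up to 0.065) followed by a retest with a 1.5-fold or larger significant decrease, p below 0.05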
Meaning of the calls: active = confirmed: knock-down lowers infection; inactive = not picked or not confirmed

target gene	PubChem SID	infection score, replicate 1	infection score, replicate 2	cell count, replicate 1	cell count, replicate 2
AP-1-2beta	SID104199128		0.36	1183	5626
AP-1-2beta	SID104202923	1.62	2.93	5316	5390
Antdh	SID104200099	17.3	11.8	4527	6043
Antdh	SID104204233	4.42	4.41	6283	6186
cona	SID104196073	6.86	14.5	6443	6179
CG32152	SID104202265	2.25	12.2	6541	6675
CG33090	SID104181700	12.7	2.42	5486	5694
CG33090	SID104206467	17.3	9.54	5923	6391
Mics1	SID104192329	5.27	4.07	6548	6343
CG18132	SID104180310	2.19	8.05	6773	6645
lectin-37Db	SID104183071	2.58	14.5	6156	5922
hec	SID104199687	0.95	2.98	5893	6375
CG12880	SID104194360	7.53	6.59	6551	6738
CG32176	SID104189849	7.25		3586	377
CG32176	SID104189850	5.15	7.52	3882	4484
cana + CG33695	SID104202776	4.44	1.86	6172	6173
MetRS	SID104201973	4.72	4.61	6037	6444
inaC	SID104187424	8.32	2.84	6706	6785
CG7084	SID104195986	1.08	2.35	6684	6763
CG13836 (retired record)	SID104194478	1.76	0.95	6660	7148
CG13836 (retired record)	SID104206607	21.7	20.1	6119	6368
PIP82	SID104198486	6.42	12.1	4952	5593
PIP82	SID104203881	2.27	5.24	6356	6663
CG10621	SID104181870	1.41	5.16	6240	6351
CG4374	SID104195362	5.07	8.26	1755	6176
CG4374	SID104206026	25.8	4.05	5122	740
bic	SID104187376	15.5	11.2	5906	5923
bic	SID104204200	3.28	7.57	6218	5984
CG33332	SID104195296	8.25	15.6	5865	4032
CG33332	SID104206205		2.06	499	921
CG7724	SID104190697	8.44	14	6376	5932
CG10859	SID104181902	16.3	12.2	6655	5745
Qsox4	SID104194016	9.54	12.9	6121	1072
CG8708	SID104187032	37	20.5	4195	5916
CG8708	SID104206418		15.3	473	6721
Sas10	SID104198147	5.98	1.29	5431	5261
Alg14	SID104199775	1.14	1.19	6659	7070
CG7800	SID104196107	5.58	11.3	6146	6192
CG7800	SID104205963	14.2	4.83	6908	6258
Cse1	SID104183079	1.78	9.88	6013	5940
Cse1	SID104205401	3.98	4.19	2110	1836
mms4	SID104186041	2.65	9.12	6805	6819
CalpC	SID104199665	5.19	3.75	6437	6889
CG17068	SID104200337	11.2	5.4	6780	6411
RpL37A	SID104182691	3.75	7.46	6420	6487
RpL37A	SID104203597	2.89	5.72	2322	2483
fd3F (retired record)	SID104202389	1.22	4.33	5996	6836
Sam-S	SID104180550			490	434
L (retired record)	SID104185758	15.7	21.4	6115	5975
L (retired record)	SID104203827	7.46	4.7	6017	5684
CG33298	SID104182002	14.1	0.61	4424	654
CG33298	SID104182464	18.2	6.83	6223	6327
Polr3G	SID104201233	2.31	5.06	5769	6210
hth	SID104196759	3.71	17.5	836	5285
hth	SID104203375	1.08	0.62	6386	6499
CG31635	SID104182065	7.7	1.44	5285	6713
CG3040	SID104201940	1.71	0.54	5923	555
CG7069	SID104195980	6	2.47	6403	6527

Entries above whose target name starts with H or h (3):
target gene	PubChem SID	infection score, replicate 1	infection score, replicate 2	cell count, replicate 1	cell count, replicate 2
hec	SID104199687	0.95	2.98	5893	6375
hth	SID104196759	3.71	17.5	836	5285
hth	SID104203375	1.08	0.62	6386	6499
